Chains of the proteins cited; added tags and fusions are not shown.
UniProt Q99250, whole entry, looked up: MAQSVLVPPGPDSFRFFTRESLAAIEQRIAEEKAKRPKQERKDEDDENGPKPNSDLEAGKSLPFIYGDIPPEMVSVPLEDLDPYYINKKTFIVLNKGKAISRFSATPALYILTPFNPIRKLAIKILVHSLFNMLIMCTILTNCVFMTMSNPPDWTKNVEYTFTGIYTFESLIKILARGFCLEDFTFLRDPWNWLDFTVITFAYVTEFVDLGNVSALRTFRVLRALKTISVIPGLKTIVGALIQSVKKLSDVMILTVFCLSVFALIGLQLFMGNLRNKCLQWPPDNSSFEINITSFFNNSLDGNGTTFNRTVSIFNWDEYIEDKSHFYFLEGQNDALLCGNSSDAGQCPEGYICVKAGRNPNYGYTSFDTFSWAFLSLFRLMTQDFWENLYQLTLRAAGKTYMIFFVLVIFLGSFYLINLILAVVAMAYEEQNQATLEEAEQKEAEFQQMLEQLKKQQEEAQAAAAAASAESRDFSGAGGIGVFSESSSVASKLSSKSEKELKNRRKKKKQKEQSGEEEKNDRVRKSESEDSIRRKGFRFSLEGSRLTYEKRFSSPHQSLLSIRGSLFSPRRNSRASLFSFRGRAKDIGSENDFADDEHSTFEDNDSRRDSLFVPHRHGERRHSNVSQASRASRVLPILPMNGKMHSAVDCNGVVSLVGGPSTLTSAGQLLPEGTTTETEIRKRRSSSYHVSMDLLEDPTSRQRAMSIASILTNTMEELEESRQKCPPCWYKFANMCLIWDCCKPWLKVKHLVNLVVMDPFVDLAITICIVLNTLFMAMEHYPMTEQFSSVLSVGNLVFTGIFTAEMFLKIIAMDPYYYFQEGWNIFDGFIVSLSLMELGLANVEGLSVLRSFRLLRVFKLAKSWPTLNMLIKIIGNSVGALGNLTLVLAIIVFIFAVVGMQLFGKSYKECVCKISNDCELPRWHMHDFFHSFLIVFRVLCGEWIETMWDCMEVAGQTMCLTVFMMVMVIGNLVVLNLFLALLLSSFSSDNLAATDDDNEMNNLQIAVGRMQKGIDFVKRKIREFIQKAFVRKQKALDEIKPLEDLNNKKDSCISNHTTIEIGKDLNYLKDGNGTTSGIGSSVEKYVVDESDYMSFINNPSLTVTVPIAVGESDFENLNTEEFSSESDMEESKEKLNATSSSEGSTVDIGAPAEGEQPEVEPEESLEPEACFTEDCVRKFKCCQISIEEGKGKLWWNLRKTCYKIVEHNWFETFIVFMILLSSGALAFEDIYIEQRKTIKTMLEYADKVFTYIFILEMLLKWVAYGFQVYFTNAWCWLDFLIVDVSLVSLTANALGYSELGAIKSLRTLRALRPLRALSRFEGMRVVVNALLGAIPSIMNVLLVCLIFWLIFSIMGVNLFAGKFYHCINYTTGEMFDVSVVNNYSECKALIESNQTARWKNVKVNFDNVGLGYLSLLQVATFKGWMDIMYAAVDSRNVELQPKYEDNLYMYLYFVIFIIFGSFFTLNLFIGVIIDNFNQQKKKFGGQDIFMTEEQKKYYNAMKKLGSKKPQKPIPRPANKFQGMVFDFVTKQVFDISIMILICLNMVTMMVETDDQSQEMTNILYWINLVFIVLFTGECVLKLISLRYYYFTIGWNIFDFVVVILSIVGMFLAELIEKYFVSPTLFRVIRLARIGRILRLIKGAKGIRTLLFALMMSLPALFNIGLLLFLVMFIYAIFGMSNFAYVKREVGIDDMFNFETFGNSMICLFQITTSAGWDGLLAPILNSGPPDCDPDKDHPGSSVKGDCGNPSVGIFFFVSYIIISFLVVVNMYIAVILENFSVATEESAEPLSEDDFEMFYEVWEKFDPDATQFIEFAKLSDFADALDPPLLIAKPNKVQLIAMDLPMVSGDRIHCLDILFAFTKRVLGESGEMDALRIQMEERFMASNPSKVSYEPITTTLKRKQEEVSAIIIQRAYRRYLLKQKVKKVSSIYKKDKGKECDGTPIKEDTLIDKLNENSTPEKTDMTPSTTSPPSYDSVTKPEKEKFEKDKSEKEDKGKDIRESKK
UniProt Q14524, whole entry, looked up: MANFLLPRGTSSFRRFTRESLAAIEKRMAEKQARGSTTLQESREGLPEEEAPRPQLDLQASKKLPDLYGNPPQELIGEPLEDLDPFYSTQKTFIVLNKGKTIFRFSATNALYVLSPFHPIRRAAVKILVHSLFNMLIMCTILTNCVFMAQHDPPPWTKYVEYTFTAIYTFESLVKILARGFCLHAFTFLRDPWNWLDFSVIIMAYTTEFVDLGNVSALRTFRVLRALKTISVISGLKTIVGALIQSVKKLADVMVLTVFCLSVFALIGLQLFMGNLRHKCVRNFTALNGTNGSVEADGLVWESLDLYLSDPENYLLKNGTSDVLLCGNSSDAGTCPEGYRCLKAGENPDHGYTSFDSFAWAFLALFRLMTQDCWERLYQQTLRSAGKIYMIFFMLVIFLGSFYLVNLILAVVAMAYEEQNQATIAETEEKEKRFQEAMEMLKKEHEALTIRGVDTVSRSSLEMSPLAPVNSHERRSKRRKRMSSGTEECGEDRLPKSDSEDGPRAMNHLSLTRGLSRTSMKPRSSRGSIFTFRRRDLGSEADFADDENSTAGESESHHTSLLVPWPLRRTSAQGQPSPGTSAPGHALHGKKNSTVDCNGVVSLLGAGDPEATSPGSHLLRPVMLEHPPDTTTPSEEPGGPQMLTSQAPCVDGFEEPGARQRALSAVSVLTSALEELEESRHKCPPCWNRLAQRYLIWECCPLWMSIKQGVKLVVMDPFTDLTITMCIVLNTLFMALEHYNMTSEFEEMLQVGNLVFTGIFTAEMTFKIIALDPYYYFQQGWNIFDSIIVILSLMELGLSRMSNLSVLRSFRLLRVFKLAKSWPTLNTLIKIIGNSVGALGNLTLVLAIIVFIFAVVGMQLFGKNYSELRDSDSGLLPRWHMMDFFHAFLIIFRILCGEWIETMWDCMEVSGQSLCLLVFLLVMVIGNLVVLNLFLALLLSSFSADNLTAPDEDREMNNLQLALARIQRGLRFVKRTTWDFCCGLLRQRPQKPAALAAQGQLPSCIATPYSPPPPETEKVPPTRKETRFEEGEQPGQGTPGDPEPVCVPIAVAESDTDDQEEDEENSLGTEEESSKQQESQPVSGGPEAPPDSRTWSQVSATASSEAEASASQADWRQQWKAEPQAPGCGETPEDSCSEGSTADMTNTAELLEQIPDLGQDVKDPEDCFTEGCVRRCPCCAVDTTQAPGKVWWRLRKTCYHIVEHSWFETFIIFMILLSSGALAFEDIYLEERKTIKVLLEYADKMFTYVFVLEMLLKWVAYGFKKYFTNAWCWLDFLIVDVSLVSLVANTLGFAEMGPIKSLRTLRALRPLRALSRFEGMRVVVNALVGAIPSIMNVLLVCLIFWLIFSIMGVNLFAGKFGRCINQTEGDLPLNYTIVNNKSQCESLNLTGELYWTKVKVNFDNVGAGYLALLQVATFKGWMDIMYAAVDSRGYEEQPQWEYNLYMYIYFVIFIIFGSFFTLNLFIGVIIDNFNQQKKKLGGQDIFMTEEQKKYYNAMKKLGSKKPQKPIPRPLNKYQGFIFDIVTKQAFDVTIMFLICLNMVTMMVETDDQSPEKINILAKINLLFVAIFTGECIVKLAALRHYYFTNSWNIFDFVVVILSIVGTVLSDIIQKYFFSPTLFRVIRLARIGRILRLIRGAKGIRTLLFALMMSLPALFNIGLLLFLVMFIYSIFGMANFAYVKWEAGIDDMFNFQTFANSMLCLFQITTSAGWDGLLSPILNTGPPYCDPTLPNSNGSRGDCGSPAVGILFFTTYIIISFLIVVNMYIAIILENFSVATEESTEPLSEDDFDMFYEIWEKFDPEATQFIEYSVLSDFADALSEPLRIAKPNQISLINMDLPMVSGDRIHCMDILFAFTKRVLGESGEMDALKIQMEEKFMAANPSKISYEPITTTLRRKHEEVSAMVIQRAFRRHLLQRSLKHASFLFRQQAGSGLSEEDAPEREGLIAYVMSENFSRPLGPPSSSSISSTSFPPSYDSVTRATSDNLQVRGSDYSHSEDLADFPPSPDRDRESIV
UniProt Q9Y5Y9, whole entry, looked up: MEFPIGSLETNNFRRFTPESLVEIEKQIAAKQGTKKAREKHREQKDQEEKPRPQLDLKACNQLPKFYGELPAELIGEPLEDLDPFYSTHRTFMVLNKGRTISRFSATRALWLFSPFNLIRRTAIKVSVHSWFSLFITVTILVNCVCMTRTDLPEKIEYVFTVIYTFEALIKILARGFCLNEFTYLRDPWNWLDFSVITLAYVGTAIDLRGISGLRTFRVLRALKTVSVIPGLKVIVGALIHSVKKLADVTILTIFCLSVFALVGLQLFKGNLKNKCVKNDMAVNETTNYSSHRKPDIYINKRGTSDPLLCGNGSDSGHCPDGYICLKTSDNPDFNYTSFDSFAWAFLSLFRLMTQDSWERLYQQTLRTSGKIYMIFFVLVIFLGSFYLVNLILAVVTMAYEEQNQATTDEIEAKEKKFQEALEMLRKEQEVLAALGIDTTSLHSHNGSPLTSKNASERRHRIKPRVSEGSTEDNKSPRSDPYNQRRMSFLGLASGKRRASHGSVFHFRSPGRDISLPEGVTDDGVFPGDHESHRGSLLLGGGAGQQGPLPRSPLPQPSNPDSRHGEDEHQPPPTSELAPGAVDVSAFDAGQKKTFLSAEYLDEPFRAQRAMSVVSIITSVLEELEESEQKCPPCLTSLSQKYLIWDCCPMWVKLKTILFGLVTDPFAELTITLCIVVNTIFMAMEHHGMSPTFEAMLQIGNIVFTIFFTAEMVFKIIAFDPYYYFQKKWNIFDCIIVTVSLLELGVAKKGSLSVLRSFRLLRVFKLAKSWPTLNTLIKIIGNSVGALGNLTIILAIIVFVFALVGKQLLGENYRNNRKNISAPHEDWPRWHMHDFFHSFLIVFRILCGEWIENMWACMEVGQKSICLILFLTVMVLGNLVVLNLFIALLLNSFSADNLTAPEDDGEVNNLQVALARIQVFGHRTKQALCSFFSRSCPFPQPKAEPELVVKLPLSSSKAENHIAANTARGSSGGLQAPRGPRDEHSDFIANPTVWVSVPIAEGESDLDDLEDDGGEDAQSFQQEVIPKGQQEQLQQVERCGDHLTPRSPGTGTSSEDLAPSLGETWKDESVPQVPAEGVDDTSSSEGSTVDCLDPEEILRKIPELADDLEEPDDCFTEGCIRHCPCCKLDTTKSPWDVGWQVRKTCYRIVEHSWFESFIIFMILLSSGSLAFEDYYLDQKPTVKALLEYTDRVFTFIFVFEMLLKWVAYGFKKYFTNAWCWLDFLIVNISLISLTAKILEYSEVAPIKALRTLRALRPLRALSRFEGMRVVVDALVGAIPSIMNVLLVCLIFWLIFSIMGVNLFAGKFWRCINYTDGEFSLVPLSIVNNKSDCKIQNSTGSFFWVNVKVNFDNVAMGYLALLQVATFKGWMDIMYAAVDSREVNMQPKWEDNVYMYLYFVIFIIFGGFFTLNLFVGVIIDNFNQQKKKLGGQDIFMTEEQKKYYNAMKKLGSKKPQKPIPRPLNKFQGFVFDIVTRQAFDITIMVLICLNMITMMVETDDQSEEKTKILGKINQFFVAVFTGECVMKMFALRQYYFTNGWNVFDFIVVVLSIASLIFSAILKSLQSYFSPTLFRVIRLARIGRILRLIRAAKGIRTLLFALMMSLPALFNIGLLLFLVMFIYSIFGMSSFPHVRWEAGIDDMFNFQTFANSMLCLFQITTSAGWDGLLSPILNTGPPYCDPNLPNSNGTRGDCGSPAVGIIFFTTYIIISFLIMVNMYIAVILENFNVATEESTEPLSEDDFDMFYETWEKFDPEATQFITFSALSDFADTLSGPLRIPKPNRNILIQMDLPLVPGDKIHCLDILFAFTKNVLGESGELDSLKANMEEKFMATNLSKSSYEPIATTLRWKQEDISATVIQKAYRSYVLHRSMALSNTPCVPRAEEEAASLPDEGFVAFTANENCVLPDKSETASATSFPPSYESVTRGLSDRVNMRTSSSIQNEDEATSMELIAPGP

In publication PMC10492761, “Identification of sodium channel toxins from marine cone snails of the subgenera Textilia and Afonsoconus” (2023):

What was measured:
[1] = molecular target: human NaV1.7 (Homo sapiens, UniProt Q15858); assay: Automated whole-cell patch-clamp, hNaV1.7; settings: read-out: Potency (IC50) at NaV1.7; HEK293 cells, hNaV1.7 α + β1; QPatch16 II whole-cell patch-clamp; holding −90 mV, 50-ms pulse to −20 mV, 0.05 Hz; 5-min incubation per concentration; mean ± SEM
[2] = molecular target: human NaV1.2 (Homo sapiens, UniProt Q99250); assay: Automated whole-cell patch-clamp, hNaV1.2; settings: read-out: Potency (IC50) at NaV1.2; HEK293 cells, hNaV1.2 α + β1; QPatch16 II whole-cell patch-clamp; holding −90 mV, 50-ms pulse to −20 mV, 0.05 Hz; 5-min incubation per concentration; mean ± SEM
[3] = molecular target: human NaV1.1 (Homo sapiens, UniProt P35498); assay: Automated whole-cell patch-clamp, hNaV1.1; settings: read-out: Potency (IC50) at NaV1.1; HEK293 cells, hNaV1.1 α + β1; QPatch16 II whole-cell patch-clamp; holding −90 mV, 50-ms pulse to −20 mV, 0.05 Hz; 5-min incubation per concentration; mean ± SEM
[4] = molecular target: human NaV1.4 (Homo sapiens, UniProt P35499); assay: Automated whole-cell patch-clamp, hNaV1.4; settings: for IC50: read-out: Potency (IC50) at NaV1.4, HEK293 cells, hNaV1.4 α + β1, QPatch16 II whole-cell patch-clamp, holding −90 mV, 50-ms pulse to −20 mV, 0.05 Hz, 5-min incubation per concentration, mean ± SEM
[5] = molecular target: human NaV1.5 (Homo sapiens, UniProt Q14524); assay: Automated whole-cell patch-clamp, hNaV1.5
[6] = molecular target: human NaV1.8 (Homo sapiens, UniProt Q9Y5Y9); assay: Automated whole-cell patch-clamp, hNaV1.8; settings: tested up to 10 µM

Row | SMILES | IC50 [1] [nM] | IC50 [2] [nM] | IC50 [3] [nM] | IC50 [4] [nM] | IC50 ([5]; read-out: Potency (IC50) at NaV1.5, HEK293 cells, hNaV1.5 α + β1, QPatch16 II whole-cell patch-clamp, holding −90 mV, 50-ms pulse to −20 mV, 0.05 Hz, 5-min incubation per concentration, mean ± SEM) [nM] | Activity at hNaV1.5, in words ([5]; tested up to 10 µM) | Activity at hNaV1.8, in words [6] | Effect on hNaV1.4 current, in words ([4]; tested up to 10 µM)
1 | CC(C)[C@H](NC(=O)[C@@H]1CCCN1C(=O)[C@@H](N)CCCNC(=N)N)C(=O)N[C@H]1CSSC[C@@H]2NC(=O)[C@H](Cc3c[nH]c4ccccc34)NC(=O)[C@H](CCCNC(=N)N)NC(=O)[C@H](CO)NC(=O)[C@H](CO)NC(=O)[C@@H]3CSSC[C@@H](C(N)=O)NC(=O)[C@H](CSSC[C@H](NC1=O)C(=O)N[C@@H]([C@@H](C)O)C(=O)NCC(=O)N[C@@H](CCCCN)C(=O)NCC(=O)N[C@@H](CCCCN)C(=O)N[C@@H](CCCNC(=N)N)C(=O)NCC(=O)N3)NC(=O)[C@H](CCCNC(=N)N)NC(=O)[C@H](CO)NC(=O)[C@H](Cc1c[nH]cn1)NC(=O)[C@H](CC(=O)O)NC(=O)[C@H](CCCNC(=N)N)NC2=O | 137 | 587 | 96 | 26 | – | – | – | –
2 | CC(C)[C@H](N)C(=O)NCC(=O)N[C@@H](CCC(=O)O)C(=O)N[C@@H](CCCNC(=N)N)C(=O)N[C@H]1CSSC[C@@H]2NC(=O)[C@H](Cc3c[nH]c4ccccc34)NC(=O)[C@H](CCCNC(=N)N)NC(=O)CNC(=O)[C@@H]3CSSC[C@@H](C(N)=O)NC(=O)[C@H](CSSC[C@H](NC1=O)C(=O)N[C@@H](CCCCN)C(=O)N[C@@H](CC(N)=O)C(=O)NCC(=O)N[C@@H](CCCCN)C(=O)N[C@@H](CCCNC(=N)N)C(=O)NCC(=O)N3)NC(=O)[C@H](CCCNC(=N)N)NC(=O)[C@H](CO)NC(=O)[C@H](Cc1cnc[nH]1)NC(=O)[C@H](CC(=O)O)NC(=O)[C@H](CCCNC(=N)N)NC2=O | 55 | 79 | 59 | 11 | > 10000 | inactive | – | –
3 | CC(C)[C@H](N)C(=O)NCC(=O)N[C@@H](CCC(=O)O)C(=O)N[C@@H](CCCNC(=N)N)C(=O)N[C@H]1CSSC[C@@H]2NC(=O)[C@H](Cc3c[nH]c4ccccc34)NC(=O)[C@H](CCCNC(=N)N)NC(=O)CNC(=O)[C@@H]3CSSC[C@@H](C(N)=O)NC(=O)[C@H](CSSC[C@H](NC1=O)C(=O)N[C@@H](CCCCN)C(=O)N[C@@H](CC(N)=O)C(=O)NCC(=O)N[C@@H](CCCCN)C(=O)N[C@@H](CCCNC(=N)N)C(=O)NCC(=O)N3)NC(=O)[C@H](CCCNC(=N)N)NC(=O)[C@H](CO)NC(=O)[C@H](Cc1c[nH]cn1)NC(=O)[C@H](CC(=O)O)NC(=O)[C@H](CCCNC(=N)N)NC2=O | – | – | – | – | – | – | inactive | –
4 | CC(C)C[C@@H]1NC(=O)[C@H](CCCNC(=N)N)NC(=O)[C@@H]2CCCN2C(=O)[C@H](CCCNC(=N)N)NC(=O)[C@@H]2CSSC[C@@H]3NC(=O)[C@H](CCCNC(=N)N)NC(=O)[C@H](CO)NC(=O)[C@H](Cc4c[nH]cn4)NC(=O)[C@H](CO)NC(=O)[C@H](CCCCN)NC(=O)[C@H](CSSC[C@H](NC(=O)[C@H](Cc4c[nH]cn4)NC(=O)[C@H](CCC(=O)O)NC(=O)CNC(=O)[C@@H](N)C(C)C)C(=O)N2)NC(=O)[C@H](Cc2c[nH]c4ccccc24)NC(=O)[C@H](CCCNC(=N)N)NC(=O)[C@H](CC(=O)O)NC(=O)[C@H](CSSC[C@@H](C(N)=O)NC3=O)NC(=O)[C@H](CCC(=O)O)NC(=O)[C@H](CCCNC(=N)N)NC(=O)[C@H](CCCCN)NC(=O)CNC(=O)[C@H](CCCNC(=N)N)NC(=O)[C@H](Cc2c[nH]c3ccccc23)NC(=O)[C@H](CC(C)C)NC(=O)[C@@H]2CCCN2C(=O)[C@H](CCCCN)NC(=O)[C@@H]2CCCN2C(=O)[C@H](CCCNC(=N)N)NC1=O | 633 | 643 | 911 | 193 | – | – | – | –
5 | CSCC[C@@H]1NC(=O)[C@H](CCC(N)=O)NC(=O)CNC(=O)[C@H](CC(N)=O)NC(=O)[C@@H]2CCCN2C(=O)[C@H](CCCCN)NC(=O)[C@@H]2CCCN2C(=O)[C@H](CCCNC(=N)N)NC(=O)[C@@H]2CSSC[C@@H]3NC(=O)[C@H](CCCNC(=N)N)NC(=O)[C@H](CO)NC(=O)[C@H](CC(N)=O)NC(=O)[C@H](CCCCN)NC(=O)[C@H](CCC(=O)O)NC(=O)[C@H](CSSC[C@H](NC(=O)[C@H](Cc4ccc(O)cc4)NC(=O)[C@H](CC(C)C)NC(=O)CNC(=O)[C@@H](N)C(C)C)C(=O)N2)NC(=O)[C@H](Cc2c[nH]c4ccccc24)NC(=O)[C@H](CCCNC(=N)N)NC(=O)[C@H](CC(=O)O)NC(=O)[C@H](CSSC[C@@H](C(N)=O)NC3=O)NC(=O)[C@H](CCSC)NC1=O | > 10000 | – | – | > 10000 | – | – | – | no effect
